Compound potency records, mixed from different reports. Data source: NIAID ChemDB in PubChem.

Common to all: tests in culture; agent: HIV-1; read by: luciferase; read-out: EC50

Rows are shuffled and stem from different studies. ECn: concentration that inhibits the pathogen or its effect by n%. Blank or dashed fields: not listed here.

compound,strain,cells,mutations,value
CCOC(=O)c1cc(C(=C2CCN(C(=O)C(=O)c3c[nH]c4c(-n5cnc(C)n5)ncc(OC)c34)CC2)c2ccccc2)n[nH]1,,HeLa,,<1 µM
Cc1cc(C)c(Oc2nc(Nc3ccc(C#N)cc3)nc3sc4c(c23)CCCC4)c(C)c1,Y-188L,HeLa,,>0.1 µM
O=C1Nc2ccc(Cl)cc2[C@@](C#CC2CC2)(C(F)(F)F)O1,p8.9,HEK293T,,2.73 nM
COc1ccc(N(C)C(=O)[C@H](Cc2cc(F)cc(F)c2)NC(=O)CN2c3ccccc3N(CC(=O)N[C@@H](Cc3cc(F)cc(F)c3)C(=O)N(C)c3ccc(OC)cc3)S2(=O)=O)cc1,NL4-3,MT-2,,0.01 µM
O=C(C(=O)N1CCN(C(=O)c2ccco2)CC1)c1c[nH]c2cccc(F)c12,,HeLa + HELA CD4+/CCR5,,<10 µM
COc1ccc(N(C)C(=O)[C@H](Cc2cc(F)cc(F)c2)NC(=O)Cn2c(=O)n(CC(=O)N[C@@H](Cc3cc(F)cc(F)c3)C(=O)N(C)c3ccc(OC)cc3)c3cc(OC)ccc32)cc1,NL4-3,MT-2,,0.04 µM
COc1cnc(-c2cnc(N)cn2)c2[nH]cc(C(=O)C(=O)N3CCC(=C(C#N)c4ccccc4)CC3)c12,,HeLa,,<1 µM
COc1ccnc2[nH]cc(C(=O)C(=O)N3CCN(C(=O)c4ccccc4)C[C@H]3C)c12,SF162,TZM-bl,,0.002 µM
CC[C@]1(CO)O[C@@H](n2cnc3c(N)ncnc32)C[C@@H]1O,,HOS,AZT-R (delta)Env,>0.869 µM
COc1ncc(OC)c2c(C(=O)C(=O)N3CCC(=C(C#N)c4ccccn4)CC3)c[nH]c12,,HeLa,,<1 µM
COc1ccc(N(C)C(=O)[C@H](Cc2ccccc2)Nc2nc(N)nc(N[C@@H](Cc3ccccc3)C(=O)N(C)c3ccc(OC)cc3)n2)cc1,NL4-3,MT-2,,3.8 µM
COc1ncc(OC)c2c(C(=O)C(=O)N3CCC(=C(c4ccccc4)c4nnc(C(F)(F)F)o4)CC3)c[nH]c12,,HeLa,,<1 µM
COc1ccc(N(C)C(=O)[C@H](Cc2ccccc2)NC(=O)NS(=O)(=O)N[C@@H](Cc2ccccc2)C(=O)N(C)c2ccc(OC)cc2)cc1,NL4-3,MT-2,,0.03 µM
Cc1cc(C)c(Nc2nc(Nc3ccc(C#N)cc3)nc3ccsc23)c(C)c1,Y-188L,HeLa,,>0.1 µM
COc1ncc(OC)c2c(C(=O)C(=O)N3CCC(=C(c4ccccc4)c4ncco4)CC3)c[nH]c12,,HeLa,,<1 µM
CN(C(=O)[C@H](Cc1cc(F)cc(F)c1)NC(=O)NS(=O)(=O)N[C@@H](Cc1cc(F)cc(F)c1)C(=O)N(C)c1ccc2c(c1)OCCO2)c1ccc2c(c1)OCCO2,NL4-3,MT-2,,0.07 µM
CCC1CN(C(=O)c2ccccc2)CCN1C(=O)C(=O)c1c[nH]c2c(C(=O)OC)cccc12,,HeLa + HELA CD4+/CCR5,,<10 µM
Cc1cc(C#N)cc(C)c1Nc1nc(Nc2ccc(C#N)cc2)nc2c(C)csc12,,HeLa,,<0.01 µM
COc1ccc(N(C)C(=O)[C@H](Cc2cc(F)cc(F)c2)NC(=O)Cn2c(=O)n(CC(=O)N[C@@H](Cc3cc(F)cc(F)c3)C(=O)N(C)c3ccc(OC)cc3)c3cc(F)ccc32)cc1,NL4-3,MT-2,,0.03 µM
C[C@@H]1CN(C(=O)c2ccccn2)CCN1C(=O)C(=O)c1c[nH]c2c(F)cccc12,,HeLa + HELA CD4+/CCR5,,<10 µM
CN(C(=O)[C@H](Cc1cc(F)cc(F)c1)NC(=O)CS(=O)(=O)N[C@@H](Cc1cc(F)cc(F)c1)C(=O)N(C)c1ccc2nccnc2c1)c1ccc2nccnc2c1,NL4-3,MT-2,,30.38 µM
O=C(C(=O)N1CCN(C(=O)c2ccoc2)CC1)c1c[nH]c2cccc(F)c12,,HeLa + HELA CD4+/CCR5,,<10 µM
COc1ccnc2[nH]cc(C(=O)C(=O)N3C4CCCC3CN(C(=O)c3ccccc3)C4)c12,AC10,TZM-bl,,1.1 µM
C[C@@H]1CCO[C@H]2Cn3cc(C(=O)NCc4ccc(F)cc4F)c(=O)c(O)c3C(=O)N12,NL4-3,TZM-bl,WT,0.0008 µM
C=CCCN(C(=O)[C@H](Cc1cc(F)cc(F)c1)NC(=O)NS(=O)(=O)N[C@@H](Cc1cc(F)cc(F)c1)C(=O)N(CC=C)c1ccc(OC)cc1)c1ccc(OC)cc1,NL4-3,MT-2,,0.26 µM
O=C(C(=O)N1CCN(C(=O)C2=Nc3ccccc3C2)CC1)c1c[nH]c2cccc(F)c12,,HeLa + HELA CD4+/CCR5,,<10 µM
COc1ccc(N(C)C(=O)[C@H](Cc2cc(F)cc(F)c2)NC(=O)c2cc(F)c(F)cc2C(=O)N[C@@H](Cc2cc(F)cc(F)c2)C(=O)N(C)c2ccc(OC)cc2)cc1,NL4-3,MT-2,,0.09 µM
Cc1cc(C)c(Nc2nc(Nc3ccc(C#N)cc3)nc3c(C)csc23)c(C)c1,,HeLa,,<0.1 µM
COC(=O)c1cccc2c(C(=O)C(=O)N3CCN(C(=O)c4ccccc4)C(C)C3)c[nH]c12,,HeLa + HELA CD4+/CCR5,,<10 µM

A second listing of 3 rows from above:

compound,strain,cells,mutations,value
C[C@@H]1CCO[C@H]2Cn3cc(C(=O)NCc4ccc(F)cc4F)c(=O)c(O)c3C(=O)N12,NL4-3,TZM-bl,WT,0.0008 µM
COc1ccc(N(C)C(=O)[C@H](Cc2cc(F)cc(F)c2)NC(=O)Cn2c(=O)n(CC(=O)N[C@@H](Cc3cc(F)cc(F)c3)C(=O)N(C)c3ccc(OC)cc3)c3cc(OC)ccc32)cc1,NL4-3,MT-2,,0.04 µM
CCC1CN(C(=O)c2ccccc2)CCN1C(=O)C(=O)c1c[nH]c2c(C(=O)OC)cccc12,,HeLa + HELA CD4+/CCR5,,<10 µM